Amino acid sequences for entries named in this document (tags omitted). A change or cut given only in a name is not applied to a line headed by its entry.
UniProt Q8CJ61: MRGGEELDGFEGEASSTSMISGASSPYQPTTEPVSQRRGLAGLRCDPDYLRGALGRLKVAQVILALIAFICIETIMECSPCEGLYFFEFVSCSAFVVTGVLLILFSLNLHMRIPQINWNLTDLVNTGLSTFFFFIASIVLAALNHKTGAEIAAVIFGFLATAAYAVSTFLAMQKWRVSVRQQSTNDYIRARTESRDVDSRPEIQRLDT

According to patent US20250313900A1, “COMPOSITIONS AND THERAPEUTIC AGENTS FOR MODULATING INFLAMMATORY RESPONSES ON BOTH TUMOR AND IMMUNE CELLS” (THE METHODIST HOSPITAL, priority 2022, published 2025):

Legend:
[1] = tested on: MHC II; experiment: MHC II assay by high-throughput flow cytometry (compound screening); format: cell-based
[2] = tested on: G-CSF; experiment: Inhibition of EGF-mediated G-CSF secretion from tumor cells; format: cell-based
[3] = tested on: glycolysis; experiment: Test glycolysis (compound screening); format: cell-based
[4] = tested on: CMTM4; experiment: Western blot of CMTM4 protein in HCC827 CT cells; format: cell-based, human; conditions: 1 μM
[5] = tested on: NF-kB promoter activity in LLC cells; experiment: NF-kB promoter activity, CMTM4-expressing NF-kB/SEAP reporter stable LLC cells; format: cell-based, murine
[6] = biological target: CMTM4 (Mus musculus, UniProt Q8CJ61); experiment: CMTM4 level (compound screening); format: cell-based
[7] = tested on: IL-6; experiment: IL-6 production (compound screening); format: cell-based
[8] = tested on: p-Akt/p-mTOR; experiment: p-Akt/p-mTOR (compound screening); format: cell-based
[9] = tested on: NF-kB promoter activity in 4T1 cells; experiment: NF-kB promoter activity, CMTM4-expressing NF-kB/SEAP reporter stable 4T1 cells; format: cell-based, murine; conditions: 4T1 reporter cells

| Substance | MHC II (%) [1] [%] | G-CSF (%) [2] [%] | Glycolysis [3] | CMTM4 protein expression [4] | NF-kB (%)-LLC [5] [%] | CMTM4 [6] | IL-6 (%) [7] [%] | p-Akt/p-mTOR [8] | NF-kB (%)-4T1 [9] [%] |
| --- | --- | --- | --- | --- | --- | --- | --- | --- | --- |
| 5-Methoxysterigmatocysin | 341.5 | 1.533 |  |  |  |  |  |  |  |
| Swazine | 304.8 | 2.692 | Inhibit | decreased | 46.39 | No difference | −6.7679 | Decrease | 50.81 |
